A mixed list of measured activities; the numbers were collected in NIAID ChemDB.

All rows: growth or infection tests; species: HIV-1; method: p24; measure: EC50

ECn is the concentration giving n% inhibition of infection, replication or growth. Conditions beyond the fields shown may differ between rows.

CC1(C)CC[C@]2(C(=O)O)CC[C@]3(CO)C(=CCC4[C@@]5(C)CC[C@H](O)C(C)(C)C5CC[C@]43C)C2C1 ; strain or isolate: IIIB ; cell line: H9 ; value: 4.4 µg/mL
Cc1cn([C@H]2C[C@H](N=[N+]=[N-])[C@@H](CO)O2)c(=O)[nH]c1=O ; strain or isolate: BRU ; cell line: CEM ; value: 0.2 µM
CC(C)CN(C[C@@H](O)[C@H](Cc1ccccc1)NC(=O)[C@H](CC(N)=O)NC(=O)c1ccc2ccccc2n1)C(=O)NC(C)(C)C ; strain or isolate: NL4-3 ; cell line: MT-4 ; mutations: PR-L10R L63P V82T I84V ; value: <0.8 µM
O=c1[nH]cnc2c1ncn2[C@H]1CC[C@@H](CO)O1 ; strain or isolate: HXB2D ; cell line: PBMC ; value: 7.3 µM
COc1ccc(C(C)c2nccc3cc(OC)c(OC)cc23)cc1OC ; strain or isolate: IIIB ; cell line: H9 ; value: >11.6 µg/mL
Cc1cn([C@H]2C=C[C@@H](CO)O2)c(=O)[nH]c1=O ; strain or isolate: NL4-3 ; cell line: PBMC ; value: 0.009 µM
c1cc(CN2CCCNCCNCCCNCC2)ccc1CN1CCCNCCNCCCNCC1 ; strain or isolate: JR-FL CLADE B R5 ; cell line: PBMC ; value: >0.5 µM
Nc1ncnc2c1ncn2CCOCP(=O)(O)O ; strain or isolate: RF ; cell line: PBMC ; value: 1 µM
CCCC1(CCC)CC(O)=C(C(c2ccccc2)C2CC2)C(=O)O1 ; strain or isolate: IIIB ; cell line: MT-4 ; value: 5 µM
C[C@@H]1CC[C@]2(C(=O)O)CC[C@]3(C)C(=CC[C@@H]4[C@@]5(C)CC[C@H](O)C(C)(C)[C@@H]5CC[C@]43C)[C@@H]2[C@]1(C)O ; strain or isolate: IIIB ; cell line: H9 ; value: 1.4 µg/mL
Cc1cn([C@H]2CC[C@@H](CO)O2)c(=O)[nH]c1=O ; strain or isolate: BRU ; cell line: U-937 ; value: >100 µM
Nc1ccn([C@H]2CC[C@@H](CO)O2)c(=O)n1 ; strain or isolate: IIIB BCH-189-resistant (RT M184V) ; cell line: MT-4 ; mutations: RT-M184V ; value: 2.6 µM
CCCCN1C(=O)[C@@H]([C@H](O)C2CCCCC2)NC(=O)C12CCN(Cc1ccc(Oc3ccc(C(=O)O)cc3)cc1)CC2 ; strain or isolate: BAL R5 ; cell line: PBMC ; value: 0.0005 µM
O=c1[nH]cnc2c1ncn2[C@H]1CC[C@@H](CO)O1 ; strain or isolate: RF ; cell line: PBMC ; value: 0.7 µM
CCc1nccc2cc(O)c(O)cc12 ; strain or isolate: IIIB ; cell line: H9 ; value: >2.08 µg/mL
CCc1cc(CCN2C(=O)c3ccccc3C2=O)c(=O)[nH]c1C ; strain or isolate: IIIB ; cell line: H9 ; value: <40 µM
CCOc1ccc(Cc2nccc3cc(OCC)c(OCC)cc23)cc1OCC ; strain or isolate: IIIB ; cell line: H9 ; value: 8.04 µg/mL
O=c1[nH]c(-c2ccc3[nH]ncc3c2)nc2ccccc12 ; cell line: OM-10.1 ; value: ≥19.1 µM
CCc1cc(NCc2nc3c(C)ccc(C)c3o2)c(=O)[nH]c1C ; strain or isolate: A018A/H112-2 ; cell line: CEM ; setting: clinical isolate ; value: <0.025 µM
Cc1c(O)cc(F)cc1C(=O)N[C@@H](Cc1ccc2ccccc2c1)[C@H](O)C(=O)N1C[C@@H](Cl)C[C@H]1C(=O)NC(C)(C)C ; strain or isolate: IIIB ; cell line: CEM ; value: <0.031 µM
C1CNCCNCCCN(CCCN2CCCNCCNCCCNCC2)CCNC1 ; strain or isolate: BaL ; cell line: PBMC ; value: >6.25 µM
O=c1[nH]cnc2c1ncn2[C@H]1CC[C@@H](CO)O1 ; strain or isolate: HXB2D (RT-M184V) ; cell line: CBMC ; mutations: RT-M184V ; value: 15.5 ± 1.9 µM
Cc1ccnc2c1NC(=O)c1cccnc1N2C1CC1 ; strain or isolate: LAI ; cell line: H9 ; value: 0.028 µM
CC(C)(C)NC(=O)[C@@H]1C[C@@H]2CCCC[C@@H]2CN1C[C@@H](O)[C@H](Cc1ccccc1)NC(=O)[C@H](CC(N)=O)NC(=O)c1ccc2ccccc2n1 ; strain or isolate: NL4-3 ; cell line: MT-4 ; mutations: PR-M46I L63P V82T I84V ; value: <0.2 µM
NC1=Nc2c(ncn2CCC(/C=C/P(=O)(O)O)CO)C(=O)C1 ; strain or isolate: RF ; cell line: PBMC ; value: 3.7 µM
Cc1cn([C@H]2C[C@H](N=[N+]=[N-])[C@@H](CO)O2)c(=O)[nH]c1=O ; strain or isolate: BaL ; cell line: PBMC ; value: 0.0225 µM
Cc1ccc(C[C@H](NC(=O)c2cccc(O)c2C)[C@H](O)C(=O)N2C[C@@H](Cl)C[C@H]2C(=O)NC(C)(C)C)cc1C ; strain or isolate: IIIB ; cell line: CEM ; value: <0.051 µM
Nc1ccc(-c2nc3ccccc3c(=O)[nH]2)cc1 ; cell line: OM-10.1 ; value: 11.8 µM
Cc1cc(O)c(C)c(C(=O)N[C@@H](Cc2ccc(-c3ccccc3)cc2)[C@H](O)C(=O)N2C[C@@H](Cl)C[C@H]2C(=O)NC(C)(C)C)c1 ; strain or isolate: IIIB ; cell line: CEM ; value: <0.048 µM
CCCCCC1NCCc2cc(O)c(O)cc21 ; strain or isolate: IIIB ; cell line: H9 ; value: >21.6 µg/mL
C[C@@H]1CC[C@]2(C(=O)O)CC[C@]3(C)C(=CCC4[C@]5(C)C(CC[C@]43C)C(C)(C)[C@@H](O)[C@H](O)[C@H]5O)C2[C@]1(C)O ; strain or isolate: IIIB ; cell line: H9 ; value: 35 µg/mL
CCO/N=C(\c1ccc(Br)cc1)C1CCN(C2(C)CCN(C(=O)c3c(C)cc[n+]([O-])c3C)CC2)CC1 ; strain or isolate: JR-FL R5 ; cell line: PBMC ; value: 0.002 µM
C[C@@H]1CC[C@]2(C(=O)O)CC[C@]3(C)C(=CCC4[C@@]5(C)C[C@@H](O)[C@H](O)C(C)(C)C5CC[C@]43C)C2[C@H]1C ; strain or isolate: IIIB ; cell line: H9 ; value: 4 µg/mL
O=C1N(Cc2ccc(CO)cc2)[C@H](Cc2ccccc2)[C@H](O)[C@@H](O)[C@@H](Cc2ccccc2)N1Cc1ccc(CO)cc1 ; strain or isolate: HXB2 ; cell line: PBMC ; value: 0.018 µM
O=c1[nH]c(-c2ccc(O)c(O)c2O)nc2ccccc12 ; cell line: OM-10.1 ; value: >51 µM